Values from PubChem BioAssay AID504761 (Drosophila RNAi Screening Center, 2011).
Screen: 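Insect host genes that dengue virus relies on to spread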 (primary screen). Cell system: D.Mel-2 cells from Drosophila. Reagent: long dsRNA against Drosophila genes. Treatment: infection with dengue virus type 2; dose and infection time not stated. Detection: 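Cells stained for dengue envelope protein and imaged; percent of infected cells per well on duplicate plates, ranked by infection, with stained nuclei counted for cell number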. Reading the numbers: infection score: higher = more virus-infected cells; cell count: higher = more cells in the well. Active means: 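Very low infection ranking in both replicate wells (chance probability at most 0.065), then a retest showing infection dropped 1.5-fold or more at p below 0.05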. Calls: active = confirmed: knock-down lowers infection; inactive = not picked or not confirmed.
In all, the deposit lists about 22,000 reagents; shown is an unselected part of those that have a named target and a result. Over the whole deposit, 116 (0.52%) got an active call. 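Calls depend on retest data that are not deposited; infection was ranked per plate without normalising between plates; the unit of the infection score is not given.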 Raw values are not corrected between plates. Unmarked entries are inactive. Names joined by + are all predicted targets of the reagent. Not all columns of the deposit are shown. Not given: the amount of reagent, the time to read-out.

Against CG14445 [SID104197730], the entry reads infection score, replicate 1 = 6.95; cell count, replicate 1 = 6047. For CG14445 [SID104203053] the deposit lists infection score, replicate 1 = 1.26; cell count, replicate 1 = 7004. Silencing of Syt12 [SID104199151] gave: infection score, replicate 1 = 4.45; cell count, replicate 1 = 6515. Against mRpS2 [SID104180342], the entry reads infection score, replicate 1 = 13.7; cell count, replicate 1 = 6018. Jhbp6 [SID104191506] scored infection score, replicate 1 = 7.97; cell count, replicate 1 = 7418. For Jhbp6 [SID104205436], the values are infection score, replicate 1 = 4.1; cell count, replicate 1 = 6373.

With knock-down of Rab9Db + Rab9D + Rab9E [SID104197448], the record shows infection score, replicate 1 = 1; cell count, replicate 1 = 5917. With knock-down of Tbcb [SID104185859], the screen gave infection score, replicate 1 = 8.94; cell count, replicate 1 = 1801. After knock-down of tomboy20 [SID104194705], the record shows infection score, replicate 1 = 6.23; cell count, replicate 1 = 6130. Silencing of HUWE1 [SID104199881] resulted in: infection score, replicate 1 = 19.5; cell count, replicate 1 = 3228. Against MED22 [SID104197967], the entry reads cell count, replicate 1 = 288. With knock-down of fliI [SID104200370] the results were infection score, replicate 1 = 27.2; cell count, replicate 1 = 4176.

Reformatted: results already given
{"target":"CG14445","PubChem SID":"SID104203053","infection score, replicate 1":1.26,"cell count, replicate 1":7004}
{"target":"Syt12","PubChem SID":"SID104199151","infection score, replicate 1":4.45,"cell count, replicate 1":6515}
